Patent US12466849B2, “Anti-viral and anti-tumoral compounds” (YEDA RESEARCH AND DEVELOPMENT CO. LTD, priority 2020, dated 2025)

These compounds were tested on JC virus (JCV). Settings: ratio CC50 / EC50.
With `CCCCCCCCCCCCCCCCOCCCOP(=O)(O)OCC1=CC(O)C(n2ccc(=O)[nH]c2=O)O1` (centres unmarked) [AB23039] the SI50 was 342.
`C[C@H](Cn1cnc2c(N)ncnc21)OCP(=O)(O)O` [TNV, reference compound] showed an SI50 of 1.
Work on `CCCCCCCCCCCCCCCCOCCCOP(=O)(O)CO[C@H](CO)Cn1ccc(N)nc1=O` [BCV, Brincidofovir] yielded an SI50 of 12.
For `Nc1ccn(C[C@@H](CO)OCP(=O)(O)O)c(=O)n1` [CDV, Cidofovir, reference compound], the SI50 was >27.
Compound `CCCCCCCCCCCCCCCCOCCCOP(=O)(O)OCC1=C[C@H](O)[C@H](n2cnc3c(=O)[nH]c(N)nc32)O1` [AB23040] has an SI50 of 9.
